Earlier results, collected in patent US6346251B1 (priority 1999, dated 2002).
Where two headings read alike, the source gives them in different places.

What was measured:
human epidermoid cells = conditions: for Trichothecene Concentrations, PIC100 max: maximum concentration that inhibits ~100% without reducing cell viability; for safe level: non toxic level used for worst case blood scenario
[1] = test system: human epidermoid cells, virally infected with HSV-2; conditions: human epidermoid cells infected with HSV-2; for hyperactive protein synthesis inhibited: by ~5 ng/ml; for Trichothecene Concentrations, Protein Synthesis Inhibition PIC100: concentration inhibiting ~100% without toxicity; for Trichothecene Concentrations, Protein Synthesis Inhibition 50% / Trichothecene Concentrations, Protein Synthesis Inhibition 80% (PIC80) / Trichothecene Concentrations, Protein Synthesis Inhibition 85% (PIC85) / Trichothecene Concentrations, Protein Synthesis Inhibition 90% (PIC90): data from Okazaki text, graph or linear interpolation

Row | Substance | Trichothecene Concentrations, PIC100 max (human epidermoid cells) [ng/mL] | safe level (human epidermoid cells) [ng/mL] | hyperactive protein synthesis inhibited [1] [%] | Trichothecene Concentrations, Protein Synthesis Inhibition PIC100 [1] [ng/mL] | Trichothecene Concentrations, Protein Synthesis Inhibition PIC100 ([1]; listed as Roridin) | Trichothecene Concentrations, Protein Synthesis Inhibition 50% [1] [ng/mL] | Trichothecene Concentrations, Protein Synthesis Inhibition 80% (PIC80) [1] [ng/mL] | Trichothecene Concentrations, Protein Synthesis Inhibition 85% (PIC85) [1] [ng/mL] | Trichothecene Concentrations, Protein Synthesis Inhibition 90% (PIC90) [1] [ng/mL] | Trichothecene Concentrations, Protein Synthesis Inhibition PIC100 ([1]; listed as Satratoxin)
1 | Roridin A | 10 | 10 | 100 | 5.0 | (PIC100 = 5 ng/ml of skin volume) | 1.4 | 2.0 | 2.5 | 3.3 | –
2 | Satratoxin G | 10 | 10 | 100 | 5.0 | – | 1.5 | 2.4 | 3.2 | 3.9 | (PIC100 = 5 ng/ml of skin volume)
